Anti-infective test results gathered from many reports (values: NIAID ChemDB through PubChem).

Shared fields: growth or infection tests; species: Cryptococcus neoformans; read-out: MIC100

Conditions beyond the fields shown may differ between rows.

{"structure": "FC(F)(F)c1cc(-c2cc3cc(Br)cnc3[nH]2)cc(C(F)(F)F)c1", "strain or isolate": "ATCC90112", "result": "15.6 µg/mL"}
{"structure": "COc1ccc(-c2c3c(N)c4c(nc3nc3c2c(C)nn3-c2ccccc2)CCC4)cc1", "strain or isolate": "ATCC 32264", "read by": "broth dilution / absorbance", "result": ">250 µg/mL"}
{"structure": "Clc1cnc2[nH]ccc2c1", "strain or isolate": "ATCC90112", "result": "15.6 µg/mL"}
{"structure": "C[C@H]1[C@H](O)[C@@H](C)/C=C/C=C/C=C/C=C/C=C/C=C/C=C/[C@H](O[C@@H]2O[C@H](C)[C@@H](O)[C@H](N)[C@@H]2O)C[C@@H]2O[C@](O)(C[C@@H](O)C[C@@H](O)CC[C@H](O)[C@@H](O)C[C@@H](O)CC(=O)O[C@H]1C)C[C@H](O)[C@H]2C(=O)O", "strain or isolate": "ATCC 32264", "read by": "broth dilution / absorbance", "result": "0.25 µg/mL"}
{"structure": "C=CCC(Nc1ccc(OC)cc1)c1ccncc1", "strain or isolate": "ATCC 32264", "result": "250 µg/mL"}
{"structure": "COc1c(O)ccc2c(=O)c3c(O)cc4c(c3oc12)C(C)(C)C(C)O4", "read by": "broth dilution", "result": ">64 µg/mL"}
{"structure": "Cc1cnc2[nH]c(-c3ccccc3)cc2c1", "strain or isolate": "ATCC90112", "result": "7.8 µg/mL"}
{"structure": "C[C@H]1[C@H](O)[C@@H](C)/C=C/C=C/C=C/C=C/C=C/C=C/C=C/[C@H](O[C@@H]2O[C@H](C)[C@@H](O)[C@H](N)[C@@H]2O)C[C@@H]2O[C@](O)(C[C@@H](O)C[C@@H](O)CC[C@H](O)[C@@H](O)C[C@@H](O)CC(=O)O[C@H]1C)C[C@H](O)[C@H]2C(=O)O", "read by": "broth dilution", "result": "4 µg/mL"}
{"structure": "COc1cc(C2Oc3ccc4c(=O)c5c(O)cc(O)cc5oc4c3OC2CO)cc(OC)c1O", "read by": "broth dilution", "result": ">64 µg/mL"}
{"structure": "CCNC(=S)N/N=C(\\N)c1ccccn1", "strain or isolate": "ATCC 24067A", "result": ">416.7 µM"}
{"structure": "COc1ccccc1-c1cc2cc(Br)cnc2[nH]1", "strain or isolate": "ATCC90112", "result": "15.6 µg/mL"}
{"structure": "Cc1ccc(-c2c3c(N)c4c(nc3nc3c2c(C)nn3-c2ccccc2)CCCC4)cc1", "strain or isolate": "ATCC 32264", "read by": "broth dilution / absorbance", "result": "250 µg/mL"}
{"structure": "CSCC[C@H]1NC(=O)[C@H]2CCCN2C1=O", "read by": "broth dilution", "result": "32 µg/mL"}
{"structure": "Cc1nn(-c2ccccc2)c2nc3nc4c(c(N)c3c(-c3ccc(Cl)cc3)c12)CCCC4", "strain or isolate": "ATCC 32264", "read by": "broth dilution / absorbance", "result": ">250 µg/mL"}
{"structure": "COc1ccc(-c2cc3cccnc3[nH]2)cc1", "strain or isolate": "ATCC90112", "result": "4 µg/mL"}
{"structure": "Cc1nn(-c2ccccc2)c2nc3nc4c(c(N)c3c(-c3ccc(Cl)cc3)c12)CCCCC4", "strain or isolate": "ATCC 32264", "read by": "broth dilution / absorbance", "result": "250 µg/mL"}
{"structure": "COc1cc2oc3cc(O)cc(O)c3c(=O)c2c2c1OC(C)(C)C=C2", "read by": "broth dilution", "result": ">64 µg/mL"}

Repeating the first 3 entries:

structure	strain or isolate	read by	result
FC(F)(F)c1cc(-c2cc3cc(Br)cnc3[nH]2)cc(C(F)(F)F)c1	ATCC90112	-	15.6 µg/mL
COc1ccc(-c2c3c(N)c4c(nc3nc3c2c(C)nn3-c2ccccc2)CCC4)cc1	ATCC 32264	broth dilution / absorbance	>250 µg/mL
Clc1cnc2[nH]ccc2c1	ATCC90112	-	15.6 µg/mL

Blank or dashed fields: not listed here. A number after MIC or MFC names an inhibition level or a share of isolates.